Measurements as given in patent US20190338048A1.

Biological target: Recombinant HER2 protein (HER2-ECD) (UniProt P04626)
Assay: SPR as for KD

Change in KD of H2L2 Fab vs wild type, -(log(KD design)-log(KD wt)) [log units]	Substance
-0.03	Pertuzumab Fab, H2 L124R_Q179K / L2 V133G_S176D_T178E
0.02	Pertuzumab Fab, H2 L124R_Q179K / L2 V133G_S176D_T180E
-0.02	Pertuzumab Fab, H2 L124R_S186K / L2 V133G_S176D_T178E
-0.01	Pertuzumab Fab, H2 L124R_S186R / L2 V133G_S176D_T180E
0.05	Pertuzumab Fab, H2 L143I_S186K / L2 V133D_Q160E
-0.01	Pertuzumab Fab, H2 V177I_S188K / L2 V133L_S176D_T178E
